Here are results for three sequences from article PMC4232046.

Experiment in all cases: SPR
On the technique in general: Surface plasmon resonance follows binding to a sensor surface in real time, without labels.

In data set [1] the test system is CBC (HapB/HapC/HapE core CCAAT-binding complex) (Aspergillus fumigatus). To be noted: affinity not affected by 3' truncation, Kd only in figure; SPR Biacore T200, 25 C; 10 mM phosphate pH 7.4, 2.7 mM KCl, 137 mM NaCl, 1 mM DTT, 0.005% surfactant P20, 10 ug/ml poly(dI-dC); biotin-DNA on streptavidin CM3 chip; recombinant protein; label: 5' biotin on strand 1.
The subject of data set [2] is CBC (HapB/HapC/HapE core CCAAT-binding complex) + HapX(24-158). To be noted: HapX on preformed CBC/DNA (CBC itself binds), HapX binding strictly depends on 3' submotif; SPR Biacore T200, 25 C; 10 mM phosphate pH 7.4, 2.7 mM KCl, 137 mM NaCl, 1 mM DTT, 0.005% surfactant P20, 10 ug/ml poly(dI-dC); biotin-DNA on streptavidin CM3 chip; recombinant protein; label: 5' biotin on strand 1.

For data set [3], the target named is T1, HapX(24-158) (Aspergillus fumigatus) (UniProt Q4WER3).
T1 sequence (looked up): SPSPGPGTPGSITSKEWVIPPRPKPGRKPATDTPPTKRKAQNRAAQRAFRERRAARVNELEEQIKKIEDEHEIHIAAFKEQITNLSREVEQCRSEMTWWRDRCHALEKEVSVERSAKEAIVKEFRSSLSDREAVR
Particulars: HapX alone, binding abolished by truncation of 3' submotif; SPR Biacore T200, 25 C; 10 mM phosphate pH 7.4, 2.7 mM KCl, 137 mM NaCl, 1 mM DTT, 0.005% surfactant P20, 10 ug/ml poly(dI-dC); biotin-DNA on streptavidin CM3 chip; recombinant protein; residues 24-158; label: 5' biotin on strand 1.

For some assays here: Negatives hold for the conditions tested. At least one verdict rests on a figure or table, not on a statement of the authors. For some assays here: Tags and fusion partners may be left off the protein sequences shown. For some assays here: For at least one entry, the source does not settle the construct or the ends of the probe.

“AAATCCACCAATCAACGCCTCCGTGATTGTCA (double strand) [cccAp-369-32]”: the binding result in data set [1] is “binds”.

Turning to “AAATCCACCAATCAACGCCTCCGTGATTGTCAGC (double strand) [cccAp-369-34]”, in data set [1], the binding result is “binds”.

As to “AAATCCACCAATCAACGCCTCCGTGATT (double strand) [cccAp-369-28]”, the binding result in data set [1] is recorded as “binds”; in data set [2] it was “no binding”; in data set [3], “no binding”.
